Reference: patent US20170130229
For at least one entry, the source does not settle the construct or the ends of the probe. Results from cells or extracts need not show a direct contact.

Chains of the proteins cited; added tags and fusions are not shown.
UniProt P03496, whole entry: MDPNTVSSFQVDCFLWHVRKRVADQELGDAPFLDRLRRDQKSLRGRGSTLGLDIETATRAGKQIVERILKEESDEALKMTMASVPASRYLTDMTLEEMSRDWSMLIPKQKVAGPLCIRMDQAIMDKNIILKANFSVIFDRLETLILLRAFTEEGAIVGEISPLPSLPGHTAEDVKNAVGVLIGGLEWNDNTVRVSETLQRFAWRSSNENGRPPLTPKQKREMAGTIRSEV

Target: NS1 (Strep rPR8) (Influenza A virus A/Puerto Rico/8/34 (H1N1)) (UniProt P03496)
Assay: pull-down
Details: protein in cells

GUCAGCAGUGCCUUAGCAGCACGUAAAUAUUGGCGUUAAGAUUCUAAAAUUAUCUCCAGUAUUAACUGUGCUGCUGAAGUAAGGUUGAC [pre-miR-16]
binding result: binds
